Reference: paper PMC6723587 (Toxins, 2019)
“And” between values parts separate entries of the source, which are not always exact repeats. Identical values can stand only once. Like-named read-outs stand apart in the source and are kept apart here.

How the values were obtained:
[1] = based on cumulated excretion of the substance
[2] = for Ke (excretion rate constant): model I, fixed effects, single oral dose DON 1 µg/kg bw; for RDF (reversed dosimetry factor): intake / cumulative excreted amount of the substance, 24 h urine
[3] = Metabolic study in one human volunteer on a diet naturally contaminated with DON, urinary excretion; conditions: worked out from the data of ref 7
[4] = one human volunteer; cited from earlier work
[5] = for Ke (excretion rate constant): model II, fixed effects, single oral dose DON3G 1 µg/kg bw; for RDF (reversed dosimetry factor): intake / cumulative excreted amount of the substance, 24 h urine
[6] = after 24 h, single dose of DON3G

Row | Substance | proposed RDF for exposure to a mixture of DON and DON3G (ratio unknown) [1] | ratio DON-15-GlcA/DON, cumulative amount in urine ([2]; after 24 h, single dose of DON) | ratio DON-15-GlcA/DON-3-GlcA, cumulative amount in urine ([2]; after 24 h, single dose of DON) | Ke (excretion rate constant) [2] | RDF (reversed dosimetry factor) ([2]; single dose of DON) | RDF, roughly, extrapolated from Warth et al. [3] | formation relative to DON-3-GlcA [4] | part of total DON-glucuronides [4] | ratio DON-15-GlcA/DON, cumulative amount in urine [5, 6] | ratio DON-15-GlcA/DON-3-GlcA, cumulative amount in urine [5, 6] | Ke (excretion rate constant) [5] | RDF (reversed dosimetry factor) ([5]; single dose of DON3G) | RDF (reversed dosimetry factor) ([5]; single dose of DON3G, listed as DON-15-GLcA)
1 | DON-15-glucuronide | 3 | 2.6 | 4.5 | 2.31 | 2.7 and 2.67 | 2.7 | about threefold more efficiently formed | 73% | 2.2 | 3.0 | 0.49 | 3.4 | 3.37
2 | DON-3-glucuronide | – | – | – | 1.28 | 12.6 | 7.2 | – | 27% | – | – | 0.49 | 11.21 | –
